Results reported in paper PMC10267556 (Nature Communications, 2023).

Target: T1, Spike (BA.4/5) (SARS-CoV-2, Omicron BA.4/5, strain)
T1 construct: source: bought: Sino Biological
Experiment: SPR
Conditions: both partners purified

B1: TH281 (antibody, V domains shown)
VH: EVQLVESGGGLVQPGGSLRLSCAASEITVSRNYMSWVRQAPGKGLEWVSVMFAGGSTFYADSVKGRFTISRDNSKNTLYLQMNSLRAEDTAVYYCARDLGVVGATDYWGQGTLVTVSS
VL: not shown
notes: IgG1 (D2:p3)
  Kd: 0.199 nM
